Results reported in the supplement of paper PMC3578754.
Fold change is the IC50 on the isolate divided by the IC50 on a reference virus; 1 = unchanged, higher = more resistant. Changes are given against the subtype B consensus. No active / inactive call. The values were gathered from many studies (numbered anew) with different assays, which the source does not name. Most viruses are clinical isolates; some are laboratory strains or clones with known resistance changes. Isolates with mixed residues are left out; stretches that were not sequenced show no change. Round top values that many isolates share are read here as limits; other very high values and 0.1 may be limits too. The protease changes I3V and N37S, insertions and deletions cannot be read from the source.

Key:
Assay in all cases: fold change of IC50 against reference virus; higher = more resistant; Cell-culture drug susceptibility tests of virus bearing the protease of each isolate, gathered from many studies.
[1] = compound: COC(=O)N[C@H](C(=O)N[C@@H](Cc1ccccc1)[C@@H](O)CN(Cc1ccc(-c2ccccn2)cc1)NC(=O)[C@@H](NC(=O)OC)C(C)(C)C)C(C)(C)C [atazanavir]
[2] = compound: CCC[C@@]1(CCc2ccccc2)CC(O)=C([C@H](CC)c2cccc(NS(=O)(=O)c3ccc(C(F)(F)F)cn3)c2)C(=O)O1 [tipranavir]
[3] = compound: CC(C)c1nc(CN(C)C(=O)N[C@H](C(=O)N[C@@H](Cc2ccccc2)C[C@H](O)[C@H](Cc2ccccc2)NC(=O)OCc2cncs2)C(C)C)cs1 [ritonavir]
[4] = compound: Cc1cccc(C)c1OCC(=O)N[C@@H](Cc1ccccc1)[C@@H](O)C[C@H](Cc1ccccc1)NC(=O)[C@H](C(C)C)N1CCCNC1=O [lopinavir]
[5] = compound: CC(C)(C)NC(=O)[C@@H]1C[C@@H]2CCCC[C@@H]2CN1C[C@@H](O)[C@H](Cc1ccccc1)NC(=O)[C@H](CC(N)=O)NC(=O)c1ccc2ccccc2n1 [saquinavir]
[6] = compound: Cc1c(O)cccc1C(=O)N[C@@H](CSc1ccccc1)[C@H](O)CN1C[C@H]2CCCC[C@H]2C[C@H]1C(=O)NC(C)(C)C [nelfinavir]
[7] = compound: CC(C)(C)NC(=O)[C@@H]1CN(Cc2cccnc2)CCN1C[C@@H](O)C[C@@H](Cc1ccccc1)C(=O)N[C@H]1c2ccccc2C[C@H]1O [indinavir]

Test System	fold change of IC50 against reference virus [1]	fold change of IC50 against reference virus [2]	fold change of IC50 against reference virus [3]	fold change of IC50 against reference virus [4]	fold change of IC50 against reference virus [5]	fold change of IC50 against reference virus [6]	fold change of IC50 against reference virus [7]
HIV-1 isolate 1256 (protease changes: R57K L63A V77I, study 64)	0.8	0.8	0.7	0.8	0.8	1.2	1
HIV-1 isolate 194 (protease changes: R57K V77I, study 64)	0.5	0.5	1	0.6	0.5	0.9	0.7
HIV-1 isolate 291 (protease changes: K14R I15V R41K L63P, study 64)	0.8	1.2	0.7	0.8	0.9	1	0.7
HIV-1 isolate 606 (protease changes: L10I T12P L19V L33F M46L G48M I54M L63T A71V I72T T74A V82A I84V I93L, study 64)	29	5.8	43	44	94	6.3	8.8
HIV-1 isolate 758 (protease changes: L10I V11I I15V A22V L24I E34D M36I I54V I62V L63P A71V V82A I84V T91S, study 64)	31	3	99	45	51	25	29
HIV-1 isolate 648 (protease changes: E35D N37T I62V L63P I93L, study 15)	0.9	0.9	0.8	0.7	0.9	1.7	1.2
HIV-1 isolate 439 (protease changes: I15V I62V L63P, study 64)	0.7	1.1	1	0.9	0.7	0.9	0.6
HIV-1 isolate 1405 (protease changes: L10I I13V K20L M46I Q58E I62V L63P A71T T74S V77I N88S L90M Q92K, study 64)	16	0.9	4.3	3.9	10	80	16
HIV-1 isolate 134 (protease changes: L10V I13V M46I L63P A71T V77I L90M, study 64)	3	1.8	8.4	3.8	4.4	7.9	2.5
HIV-1 isolate 309 (protease changes: L10I L63P I93L, study 64)	1.5	1.1	1.4	1.4	1.4	3.3	2.2
HIV-1 isolate 818 (protease changes: G16E I62V L63T I72V V77I, study 64)	1.2	1.6	1.5	1.1	1.1	1.4	1.1
HIV-1 isolate 86 (protease changes: T12K, study 64)	0.6	0.7	0.8	0.7	0.6	0.7	0.7
HIV-1 isolate 1423 (protease changes: L10I I15V L19I K20R M36I R41K M46L I54V L63P A71V L76V V82A L90M I93L, study 64)	0.7	0.9	43	33	3.8	6.8	22
HIV-1 isolate 858 (protease changes: L10F M46I R57K I62V L63P A71T I84V L90M I93L, study 64)	11	1.1	11	12	12	6.9	9.5
HIV-1 isolate 394 (protease changes: L10I L19I K20R E35D M36I R41K M46I I54V L63P I64V G73T V82A L90M I93L C95F, study 64)	48	1.6	104	48	19	30	43
HIV-1 isolate 873 (protease changes: L63P, study 64)	0.9	1.4	1.2	1	1	1.7	1
HIV-1 isolate 1470 (protease changes: L33F K45I R57G I84V, study 76)	2	2	6	4	3	1	6
HIV-1 isolate 1524 (protease changes: V32I M46I I47V I62V L63P I72Y G73S V77I I93L, study 64)	9	1.6	9.6	8.7	1	8	16
HIV-1 isolate 34 (protease changes: L10V T12V I13V I15V K20M V32I L33F K43T M46I I47V I54M D60E Q61N I62V L63P C67Y H69K A71I I72L G73S V77I V82A L89V L90M, study 64)	88	12	≥ 800	≥ 500	12	76	88

Test System	fold change of IC50 against reference virus [1]	fold change of IC50 against reference virus [2]	fold change of IC50 against reference virus [3]	fold change of IC50 against reference virus [4]	fold change of IC50 against reference virus [5]	fold change of IC50 against reference virus [6]	fold change of IC50 against reference virus [7]
HIV-1 isolate 1113 (protease changes: none, study 64)	0.7	0.5	0.7	0.6	0.5	0.6	0.8
HIV-1 isolate 1607 (protease changes: T12P K14R L63P G68E A71T, study 64)	0.8	0.9	1	1.1	1.6	0.9	1.1
HIV-1 isolate 1165 (protease changes: L19I R57K L63S I64V E65D, study 64)	0.9	1.1	1.2	1.2	0.8	1.6	1.3
HIV-1 isolate 1352 (protease changes: I3F L10I K20R V32I L33F E34K E35D M36I N37D R41K K43E K45R I54M D60K L63P A71V I72T V77I I84V L90M I93L, study 64)	184	28	≥ 800	51	27	79	29
HIV-1 isolate 844 (protease changes: I15V K20R E35D M36I N37D F53L L63P H69K A71T I72V V77I V82A, study 15)	1.9	0.7	18	2.2	0.8	1.6	1.8
HIV-1 isolate 1367 (protease changes: L63P I64L, study 64)	1	0.8	0.4	1	0.9	0.9	0.6
HIV-1 isolate 82 (protease changes: L10I I15V I54L I62V L63P I93L, study 64)	1.7	1.7	5	4.6	1.6	2.5	1.8
HIV-1 isolate 799 (protease changes: L63P H69Q K70R V77I, study 64)	0.7	0.8	1.2	1	0.5	1.8	0.9
HIV-1 isolate 466 (protease changes: L10I T12I N37D M46L G48V R57K L63Q I64V A71V I72T V82A I84V, study 64)	22	0.9	44	5.4	120	7.2	18
HIV-1 isolate 1399 (protease changes: I13V D30N K43T M46I D60E Q61E L63P V77I I93L, study 64)	1.5	0.4	0.6	0.7	0.6	19	1.4
HIV-1 isolate 719 (protease changes: L10I I13V L19V L24I V32I L33F K43E M46L I54V D60E L63P A71V I72V V82A I84V, study 64)	206	5.5	≥ 800	116	14	55	24
HIV-1 isolate 1603 (protease changes: L10I K20R E35D M36I N37D R41K M46I I54V I62V L63P V82A L90M I93L C95F, study 64)	51	3.3	≥ 800	76	24	191	104
HIV-1 isolate 710 (protease changes: M46L K55R L63P H69Y A71T I84V L90M, study 64)	3.7	1.2	17	3.1	8.1	8.6	3.6
HIV-1 isolate 408 (protease changes: L63T V77I, study 64)	0.8	0.6	0.5	0.6	0.6	0.7	0.4
HIV-1 isolate 1608 (protease changes: I15V M36I I72V, study 64)	1	1.2	1.5	1.1	1	1.3	0.8
HIV-1 isolate 379 (protease changes: L10F L19I K20R L23I E35D M36I R41K M46I I50V F53L I54V L63P I64V I66V A71I G73T L90M I93L, study 64)	47	0.5	≥ 800	94	≥ 1000	93	5
HIV-1 isolate 485 (protease changes: L10I I15V L63T I93L, study 64)	1.3	1.4	1.3	0.9	1.4	1.7	1.4
HIV-1 isolate 1386 (protease changes: E35D M36I R41K I62V L63P V77I I93L, study 64)	1.1	1.3	1.4	1	1	2.5	1.2
HIV-1 isolate 650 (protease changes: R57K D60E L63P I64V G73C V77I L90M, study 64)	3.1	1	6.3	1.3	3.6	7.1	3
